Reference: PubChem BioAssay AID624099 (ICCB-Longwood, 2012)

Screen: 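Host factors E2 relies on to silence an HPV18 LCR reporter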 (primary screen)
Cells: human C33A cervical carcinoma cells (HPV-negative) stably expressing BPV1 E2 and an HPV18 LCR luciferase reporter
Knock-down reagent: siRNA pool against human genes, 40 nM
Time to read-out: 72 h
Measurement: 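HPV18 LCR reporter light per well, converted to plate-wise z-scores that exclude control wells, and averaged over triplicate plates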
Direction: mean z-score and z-score: higher = stronger reporter signal, weaker E2 silencing
Active means: 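Hit if mean z-score reaches 2 and two or more of three replicate z-scores also reach 2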
The whole screen tested about 21,000 reagents; below is a random part of them. 497 of them (2.4%) count as active. 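Higher z means weaker E2 silencing; only reporter increases were scored, and knock-downs that hurt cell survival may mask genuine repressor factors.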 A number with no mark means an inactive call.

MTNR1B [SID134311109]
- mean z-score: 0.85
- z-score, replicate A: 0.71
- z-score, replicate B: 0.72
- z-score, replicate C: 1.1

TRAPPC3 [SID134321571]
- mean z-score: -0.49
- z-score, replicate A: -0.28
- z-score, replicate B: -0.64
- z-score, replicate C: -0.55

MPND [SID134322479]
- mean z-score: 1.27
- z-score, replicate A: 1.45
- z-score, replicate B: 1.44
- z-score, replicate C: 0.9

MT-ND3 [SID134317079]
- mean z-score: -1.67
- z-score, replicate A: -1.53
- z-score, replicate B: -1.79
- z-score, replicate C: -1.69

IGFBP5 [SID134315284]
- mean z-score: -0.78
- z-score, replicate A: -0.62
- z-score, replicate B: -0.98
- z-score, replicate C: -0.73

NUP210P1 [SID134327360]
- mean z-score: 0.99
- z-score, replicate A: 0.89
- z-score, replicate B: 1.15
- z-score, replicate C: 0.93

C1orf122 [SID134326807]
- mean z-score: 1.43
- z-score, replicate A: 1.55
- z-score, replicate B: 1.1
- z-score, replicate C: 1.66

AKAP12 [SID134314828]
- mean z-score: -0.6
- z-score, replicate A: -0.92
- z-score, replicate B: -0.38
- z-score, replicate C: -0.49

FAM135A [SID134327651]
- mean z-score: 0.47
- z-score, replicate A: 0.25
- z-score, replicate B: 0.67
- z-score, replicate C: 0.49

LOC402336 (retired record) [SID134328022]
- mean z-score: -1.44
- z-score, replicate A: -2.12
- z-score, replicate B: -1.29
- z-score, replicate C: -0.9

RASGRF2 [SID56479299]
- mean z-score: -0.68
- z-score, replicate A: -1.13
- z-score, replicate B: -0.32
- z-score, replicate C: -0.61

RNF130 [SID134312144]
- mean z-score: 0.18
- z-score, replicate A: -0.31
- z-score, replicate B: 0.35
- z-score, replicate C: 0.5

PGBD3 [SID134321537]
- mean z-score: 0.04
- z-score, replicate A: -0.07
- z-score, replicate B: 0.07
- z-score, replicate C: 0.11

NBR2 [SID134315061]
- mean z-score: 0.62
- z-score, replicate A: 0.68
- z-score, replicate B: 0.41
- z-score, replicate C: 0.78
